We go through 6 molecules from the supplement of paper PMC12637763.

Substitutions are numbered along the chain they refer to. Some of the results follow. Env chains of viruses from a treatment-interruption trial, translated from the printed DNA. IC50 / IC80 of two broadly neutralizing antibodies; lower = more sensitive virus; >50 µg/ml means not reached and <0.001 µg/ml is below the lowest dose. No active / inactive call.

Experiment [1] addresses antibody 10-1074. As to the kind of experiment: neutralization IC50; higher = virus less sensitive to the antibody. The procedure: (§1)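 Pseudovirus bearing the Env chain mixed with antibody, from 50 µg/ml in fivefold dilutions, on TZM-bl reporter cells, in duplicate.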
For experiment [2], the target named is antibody 3BNC117. Described as above. The procedure:
as §1

The target of experiment [3] is antibody 10-1074. Put plainly: neutralization IC80; higher = virus less sensitive to the antibody. The procedure: as §1
Experiment [4] concerns the target antibody 3BNC117. Described as above. The procedure: as §1

B1: HIV-1 Env, rebound clone, antibody arm (protein)
chain: MKVKGIRKNYQHLWKWDTMLTMLLGMIMICSAVGNLWVTVYYGVPVWKDASTTLFCASDAKGYETEVHNVWATHACVPTDPSPQELVLENVTEDFNMWENNMVEQMQEDIISLWDQSLKPCVQLTPLCVTLNCTNIASGSINNSSTTGNISNSNDMKNCSFNISSGIQDRVKKDYAYFYNLDIVQITDDNSSNSYRLINCNTSVITQACPKVSFEPIPIHYCTPAGFAILKCNDKKFNGTGTCKNVSTVQCTHGIKPVVSTQLLLNGSLAEEEIVIRSENFTNNGKNIIVQLKEAVEINCTRVGNNTRKSIHMGPGRAFYANGDIIRNIRLAHCNISKARWNNTLRQIAIKLKEQYNNSKTINFTKSSGGDLEITTHMFNCGGEFFFCNTTQLFNSTWNNSTWNDTGNWNDTDETITLPCKIKQIINMWQRAGRAMYAPPISGNISCSSKITGLLLTRDGGNDNESQETKEVFRPGGGDMRDNWRSELYKYKVVKIEPLGVAPTKAKRRVVQREKRAVGLGALFLGFLGAAGSTMGAASITLTAQARQLMSGIVQQQNNLLKAIEAQQHLLQLTVWGIKQLQARVLAVERYLKDQQLLGIWGCSGKLICTTAVPWNTSWSNKSYDEIWEKMTWMQWEREIDNYTGIIYTLIHESQNQQDKNEQDLLALDHWASLWNWFDISNWLWYIRLFIMIVGGLVGLRIVFAVLSIVNRIRQGYSPISLQTPLPAQREPDRPGGIEEEGGERDRGRSTRLVHGSLALIWSDLSSLCIFSYHRLRDLLLIAARIVEILGRRGWELLKYWWNLLQYWSQELKNSAVSLLDAVAIAIAEGTDRVIEAAQRAWRRIRQGSEGVLL
Take B1: the “neutralization IC50” value in experiment [1] and in experiment [2] was more than 50 µg/mL in each case. For the same molecule, the “neutralization IC80” value in experiment [3] and in experiment [4] was more than 50 µg/mL in each case.

B2: HIV-1 Env, rebound clone, antibody arm (protein)
chain: B1 chain with K15R, W16R, N143S, T147N, N363K, E468G
As for B2, the “neutralization IC50” value in experiment [1] and in experiment [2] was more than 50 µg/mL in each case. The “neutralization IC80” value in experiment [3] and in experiment [4] was more than 50 µg/mL in each case.

B3: HIV-1 Env, rebound clone, placebo arm (protein)
chain: MRVMGTQRNYPRFWNWVMIIFWMIIIGNANQLWVTVYYGVPVWKEAETTLFCASDAKAYDTEVHNVWATHACVPTDPDPREIPLENVTEKFNIWKNDMVEQMHQDIISLWDQSLKPCVKLTPLCVTLNCTNINATGSIVGNSTDMKNCSFNVTTIRRDKMQKEYALFYNLDIVQIDNSDNSSYRLVSCNTSVITQACPKVSFEPIPIHYCAPAGFAIIKCNNKTFNGTGPCTNVSTVQCTHGIKPVVSTQLLLNGSLAEEKIMIRSENITNSAKTIIVQLNESVTINCTRPGNNTRKSIRIGPGQTYYATGAIIGDIRQAHCNVSKEKWMSTLQKVAKQLGEHFISAQNISFNSSSGGDVEITTHSFICGGEFFYCNTTGLFNSTWMIRNNTYNENSSNESGTITLQCRIKQYVNLWQRVGRAMYAPPIRGDINCTSNITGLLLTRDGGGNNESETFRPIGGDMRDNWRSELYKYKVVKIEPLGVAPTYAKRRVVGREKRAVGLGAVFLGFLGAAGSTMGAASITLTVQARQLLSGIVQQQSNLLKAIEAQQHLLRLTVWGIKQLQARVLALERYLRDQQLLGIWGCSGKLICPTTVPWNSSWSNKTFNEIWDNMTWLQWDKEISNYTETIYALIEQSQNQQEKNEQDLLALDKWANLWNWFDITKWLWYIKIFIMIVGGLIGLRIVFAVFSLVNRVRQGYSPLSFQILTHRQREPDRPGRIEEEGGEQDRDRSVRLVSGFLALAWDDLRSLCLFLYHRLRDSVLIATRGVELLGHSILKGLRLGWEALKHLWNLLSYWSQELKNSAISLFDTIAIAVANWTDRAIELGQAAGRAILHIPRRIRQGLERALL
B3: the figures for the “neutralization IC50” value in experiment [1] and in experiment [2] were 0.002 µg/mL and 3.71 µg/mL, respectively. Further, the “neutralization IC80” value was 0.008 µg/mL in experiment [3] and more than 50 µg/mL in experiment [4].

B4: HIV-1 Env, rebound clone, placebo arm (protein)
chain: B3 chain with I82T
B4: the results for the “neutralization IC50” value in experiment [1] and in experiment [2] were 0.003 µg/mL and 2.25 µg/mL, respectively. Moreover, the results for the “neutralization IC80” value in experiment [3] and in experiment [4] were 0.013 µg/mL and 43.3 µg/mL, respectively.

B5: HIV-1 Env, rebound clone, placebo arm (protein)
chain: MRVMGTQRNYPLLWNWVMTIFWMIIIGNANQLWVTVYYGVPVWKEAETTLFCASDAKAYDTEVHNVWATHACVPTDPDPREIPLENVTEKFNIWKNDMVEQMHQDIISLWDQSLKPCVKLTPLCVTLHCTNATAINATVGNSTDMKNCSFNVTTIRRDKMQKEYALFYNLDIVQIDNSDSYRLVSCNTSVITQACPKVSFEPIPIHYCAPAGFAIIKCNNKTFNGTGPCTNVSTVQCTHGIKPVVSTQLLLNGSLAEEKIMIRSENITNSAKTIIVQLKKSVTINCTRPGNNTRKSIRIGPGQTYYATGAIIGDIRQAHCNVSKKEWMDTLQEVAKQLGEHFISAQNISFNSSSGGDVEITTHSFICGGEFFYCNTTGLFNSTWIKNNTGINNDTWTIYNESSSNWTGTITLQCRIKQYVNLWQRVGRAMYAPPIRGDINCTSNITGLLLTRDGGGNKESQTFRPIGGDMRDNWRSELYKYKVVKIEPLGVAPTYAKRRVVGREKRAVGLGAVFLGFLGAAGSTMGAASITLTVQARQLLSGIVQQQSNLLQAIEAQQHLLRLTVWGIKQLQARVLALERYLRDQQLLGIWGCSGKLICPTTVPWNSSWSNKTVNEIWDNMTWLQWDKEISNYTETIYALIEQSQNQQEKNEQDLLALDKWANLWNWFDITKWLWYIKIFIMIVGGLIGLRIVFAVFSLVNRVRQGYSPLSFQILTHRQREPDRPGRIEEEGGEQDRDRSVRLVSGFLALAWDDLRSLCLFLYHRLRDFVLIATRGVELLGHSILKGLRLGWEALKHLWNLLSYWSQELKNSAISLFDTIAIAVANWTDRIIELGQAAGRAILHIPRRIRQGLERALL
Take B5: the “neutralization IC50” value in experiment [1] turned out to be 0.001 µg/mL; in experiment [2], 0.074 µg/mL. Moreover, the “neutralization IC80” value in experiment [3] was found to be 0.005 µg/mL; in experiment [4], 0.549 µg/mL.

B6: HIV-1 Env, rebound clone, placebo arm (protein)
chain: B5 chain with C367R
Consider B6, for which the figures for the “neutralization IC50” value in experiment [1] and in experiment [2] were 0.001 µg/mL and 0.137 µg/mL, respectively. For the same molecule, the “neutralization IC80” value in experiment [3] came out at 0.01 µg/mL; in experiment [4], 1.89 µg/mL.
